Laboratory results: article PMC4417968, “Role of Acidic Residues in Helices TH8–TH9 in Membrane Interactions of the Diphtheria Toxin T Domain” (Toxins, 2015)

B1: diphtheria toxin T domain double mutant E349Q/D352N (domain or fragment)
chain: not shown
notes: diphtheria toxin T domain, […], with E349Q and D352N; a thrombin cleavage site stands between the His tag and the domain; source: monomeric fractions
B2: diphtheria toxin T domain single mutant E362Q (domain or fragment)
chain: not shown
notes: diphtheria toxin T domain, […], with E362Q; a thrombin cleavage site stands between the His tag and the domain; source: monomeric fractions

Molecular target: the molecule itself
Assay: SEC; 25 uM previously purified monomeric fractions incubated in 50 mM phosphate buffer pH 6.5; TSK-Gel G2000 SWXL column equilibrated at pH 6.5, 0.5 mL/min; monomer to dimer

Row | Protein | stoichiometry N
1 | B1 | 2
2 | B2 | 2
